# HIV-1 5' UTR: effect of mutations on RNA dimer formation

Data from the supplement of Ye et al. 2022, doi:10.1038/s41594-022-00746-2.

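Mutant RNA libraries with 1G, 2G or 3G starts, with or without cap, were folded at 37 °C for 30 min. High salt was 300 mM KCl and 5 mM MgCl2, low salt 40 mM KCl and 0.1 mM MgCl2; monomer and dimer were parted on a native gel. Mutation frequencies in the two bands give Kdimer.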

The 5' region of HIV-1 NL4-3 RNA (positions 1-437):
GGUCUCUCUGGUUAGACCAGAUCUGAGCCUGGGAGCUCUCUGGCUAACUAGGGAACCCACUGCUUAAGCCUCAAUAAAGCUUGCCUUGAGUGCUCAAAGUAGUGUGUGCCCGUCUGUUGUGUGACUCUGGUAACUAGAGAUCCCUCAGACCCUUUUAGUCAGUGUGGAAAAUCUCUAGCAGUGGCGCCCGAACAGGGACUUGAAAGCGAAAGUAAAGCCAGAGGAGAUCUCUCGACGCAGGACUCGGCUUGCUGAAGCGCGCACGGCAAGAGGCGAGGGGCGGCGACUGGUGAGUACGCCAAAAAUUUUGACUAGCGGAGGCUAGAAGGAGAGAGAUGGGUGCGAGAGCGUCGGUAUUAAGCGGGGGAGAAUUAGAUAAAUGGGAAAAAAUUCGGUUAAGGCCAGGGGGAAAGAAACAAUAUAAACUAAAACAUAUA

Values are log2 Kdimer, the median over the changes at each position: higher means that changes there hinder dimer formation, below 0 that they favour it. One numbering serves 1G, 2G and 3G. A position is written with its base where known. The source gives no letters past position 437.

* position 501 = 2G uncapped low-salt 0.13; 3G uncapped low-salt 0.07; 3G capped low-salt 0.05
* position 502 = 2G uncapped low-salt 0.14; 3G uncapped low-salt 0.15; 3G capped low-salt 0.29
* position 503 = 2G uncapped low-salt -0.02; 3G uncapped low-salt 0.13; 3G capped low-salt -0.03
* position 504 = 2G uncapped low-salt 0.11; 3G uncapped low-salt 0.12; 3G capped low-salt 0.18
* position 505 = 2G uncapped low-salt 0.12; 3G uncapped low-salt 0.12; 3G capped low-salt 0.20
* position 506 = 2G uncapped low-salt 0.18; 3G uncapped low-salt 0.14; 3G capped low-salt 0.15
* position 507 = 2G uncapped low-salt -0.07; 3G uncapped low-salt -0.07; 3G capped low-salt -0.06
* position 508 = 2G uncapped low-salt 0.00; 3G uncapped low-salt -0.07; 3G capped low-salt 0.02
* position 509 = 2G uncapped low-salt -0.07; 3G uncapped low-salt -0.05; 3G capped low-salt 0.02
* position 510 = 2G uncapped low-salt 0.02; 3G uncapped low-salt -0.05; 3G capped low-salt 0.05
* position 511 = 2G uncapped low-salt 0.08; 3G uncapped low-salt -0.06; 3G capped low-salt 0.11
* position 512 = 2G uncapped low-salt -0.11; 3G uncapped low-salt -0.03; 3G capped low-salt 0.00
* position 513 = 2G uncapped low-salt -0.09; 3G uncapped low-salt -0.08; 3G capped low-salt 0.02
* position 514 = 2G uncapped low-salt -0.06; 3G uncapped low-salt -0.07; 3G capped low-salt 0.03
* position 515 = 2G uncapped low-salt -0.01; 3G uncapped low-salt -0.14; 3G capped low-salt -0.11

Excerpt, the final 2 entries:

{"position": "514", "domain": "none", "2G uncapped low-salt": -0.06, "3G uncapped low-salt": -0.07, "3G capped low-salt": 0.03}
{"position": "515", "domain": "none", "2G uncapped low-salt": -0.01, "3G uncapped low-salt": -0.14, "3G capped low-salt": -0.11}